Laboratory results: publication PMC8950151, “Synthesis and Evaluation of the Antifungal and Toxicological Activity of Nitrofuran Derivatives” (Pharmaceutics, 2022)

What was measured:
[1] = test system: A549 (ATCC CCL-185) lung epithelial cell line; experiment: Cytotoxicity assay in monolayer by resazurin colorimetric method; type: cell-based, human; conditions: for Calculated SI C. albicans: A549 IC50 versus MIC90 of C. albicans; for Calculated SI C. glabrata: A549 IC50 versus MIC90 of C. glabrata; for Calculated SI C. krusei: A549 IC50 versus MIC90 of C. krusei; for Calculated SI C. neoformans: A549 IC50 versus MIC90 of C. neoformans; for Calculated SI P. brasiliensis: A549 IC50 versus MIC90 of P. brasiliensis; for Calculated SI T. mentagrophytes: A549 IC50 versus MIC90 of T. mentagrophytes; for Calculated SI T. rubrum: A549 IC50 versus MIC90 of T. rubrum
[2] = test system: MRC-5 (ATCC CCL-171) pulmonary fibroblast cell line; conditions: for Calculated SI C. albicans: MRC-5 IC50 versus MIC90 of C. albicans; for Calculated SI C. glabrata: MRC-5 IC50 versus MIC90 of C. glabrata; for Calculated SI C. krusei: MRC-5 IC50 versus MIC90 of C. krusei; for Calculated SI C. neoformans: MRC-5 IC50 versus MIC90 of C. neoformans; for Calculated SI T. rubrum: MRC-5 IC50 versus MIC90 of T. rubrum

Compound	Calculated SI C. albicans [1]	Calculated SI C. glabrata [1]	Calculated SI C. krusei [1]	Calculated SI C. neoformans [1]	Calculated SI P. brasiliensis [1]	Calculated SI T. mentagrophytes [1]	Calculated SI T. rubrum [1]	Calculated SI C. albicans [2]	Calculated SI C. glabrata [2]	Calculated SI C. krusei [2]	Calculated SI C. neoformans [2]	Calculated SI T. rubrum [2]
O=C(/C=C/c1ccccc1)OCc1ccc([N+](=O)[O-])o1 [Compound 1]	64.10	32.01	8.00	8.00	64.10	16.02	1.00	61.66	30.79	7.69	7.69	0.96
O=C(NCCCn1ccnc1)c1ccc([N+](=O)[O-])o1 [Compound 2, N-(3-(1H-imidazol-1-yl)propyl)-5-nitrofuran-2-carboxamide]	0.19	0.19	0.19	0.19	1.57	0.39	0.39	0.36	0.36	0.36	0.36	0.72
O=C(NCCc1ccccn1)c1ccc([N+](=O)[O-])o1 [Compound 3, 5-nitro-N-(2-(pyridin-2-yl)ethyl)furan-2-carboxamide]	0.92	0.92	0.92	7.39	481.66	3.69	1.84	1.00	1.00	1.00	8.00	2.00
O=C(NCc1ccccn1)c1ccc([N+](=O)[O-])o1 [Compound 4]	0.11	0.11	0.11			0.94	0.23	0.54	0.54	0.54	8.66	1.08
O=C(NCCCc1ccccc1)c1ccc([N+](=O)[O-])o1 [Compound 5]	0.24	0.24	0.48		1.92	0.96	1.92	0.31	0.31	0.63	10.19	2.54
CN(C)CCCNC(=O)c1ccc([N+](=O)[O-])o1 [Compound 6]	0.05	0.05	0.05	0.05	0.42	0.05	0.05	0.06	0.06	0.06	0.06	0.06
O=C(NCCc1c[nH]c2ccccc12)c1ccc([N+](=O)[O-])o1 [Compound 7]	0.03	0.03	0.03	0.13	4.40	0.06	0.06	0.28	0.28	0.28	1.13	0.56
O=C(/C=C/c1ccc([N+](=O)[O-])o1)c1ccccc1 [Compound 8]	6.89	6.88	0.21	1.72	55.46	54.89	54.89	0.85	0.85	0.02	0.21	6.79
O=C(/C=C/c1ccc([N+](=O)[O-])o1)c1ccc(F)cc1 [Compound 9]	1.49	0.74	0.09		48.77	12.00	23.88	3.02	1.51	0.18	3.02	48.19
O=C(/C=C/c1ccc([N+](=O)[O-])o1)c1ccc(Cl)cc1 [Compound 10]	0.15	0.15	0.15	0.15	39.86	9.91	9.91	0.86	0.86	0.86	0.86	55.23
O=C(/C=C/c1ccc([N+](=O)[O-])o1)c1ccc(Br)cc1 [Compound 11]	0.09	0.04	0.04	0.04	12.61	1.56	1.56	0.50	0.25	0.25	0.25	8.02
COc1ccc(C(=O)/C=C/c2ccc([N+](=O)[O-])o2)cc1 [Compound 12]	1.00	1.00	1.00		64.10	128.20	255.10	0.91	0.91	0.91	0.91	232.65
CSc1ccc(C(=O)/C=C/c2ccc([N+](=O)[O-])o2)cc1 [Compound 13]	0.07	0.07	0.07	0.07	18.26	18.26	18.26	0.01	0.01	0.01	0.01	4.23
O=C(/C=C/c1ccc([N+](=O)[O-])o1)c1ccc(-n2ccnc2)cc1 [Compound 14]	2.14		2.14	8.57	17.14	17.14	17.14	1.71		1.71	6.87	13.74
CS(=O)(=O)c1ccc(C(=O)/C=C/c2ccc([N+](=O)[O-])o2)cc1 [Compound 15, (E)-1-(4-(methylsulfonyl)phenyl)-3-(5-nitrofuran-2-yl)prop-2-en-1-one]	0.13	0.13	0.13	0.13	8.77	4.38	4.38	0.04	0.04	0.04	0.04	1.47
O=C(/C=C/c1ccc([N+](=O)[O-])o1)c1ccc(Cl)cc1Cl [Compound 16, (E)-1-(2,4-dichlorophenyl)-3-(5-nitrofuran-2-yl)prop-2-en-1-one]	0.14	0.14	0.14	0.14	17.96	4.56	4.56	0.11	0.11	0.11	0.11	3.83
